Results of unrelated studies side by side (data: NIAID ChemDB).

Shared fields: target-level tests; agent: Pneumocystis carinii

Rows are shuffled and stem from different studies. Percent inhibition refers to the dose given; in toxicity tests it is the harm to the cells. Two numbers with a dash give a range or band. ICn is the concentration giving n% inhibition. Blank or dashed fields: not listed here.

compound	measure	dose	protein	value
CC(=O)NS(=O)(=O)c1ccc(N=NC2C(=O)N(C(=O)c3ccncc3)N=C2C)cc1	IC50	-	DHPS	2105 µM
Nc1cccc(C(=O)O)c1	IC50	-	DHPS	1700 µM
NC(=NCC1CC1)c1ccc(-c2ccc(-c3ccc(C(N)=NCC4CC4)cc3)o2)cc1	IC50	-	Ergosterol	21 µM
N=C(N)c1ccc2c(c1)[nH]c1cc(C(=N)N)ccc12	IC50	-	Topoisomerase II	10 µM
c1cc(-c2ccc(C3=NCCCN3)cc2)nc(-c2ccc(C3=NCCCN3)cc2)n1	IC50	-	Topoisomerase II	3000–12000 µM
O=c1ccc2ccc(OCC#CCN3CCCC3)cc2o1	IC50	-	Oxidosqualene cyclase	0.52 µM
Nc1nc(N)c2ccc(C(F)(F)F)cc2n1	IC50	-	DHFR	31 µM
Nc1nc2ccc(NCc3cccnc3)cc2c(=O)[nH]1	IC50	-	Thymidylate synthetase	42 µM
Nc1nc(N)c2nc(CCc3ccccc3)c(CCc3ccccc3)nc2n1	IC50	-	DHFR	4.9 µM
CC(=O)Nc1ccc(S(=O)(=O)NC(=O)NCCC(C)C)cc1	IC50	-	DHPS	783.6 µM
Nc1nc(N)c2c(CNc3cc(Cl)c(-n4cccc4)c(Cl)c3)csc2n1	IC50	-	DHFR	>10 µM
C=CCN(C)CCCCCCCCCCOc1ccc2ccc(=O)oc2c1	IC50	-	Oxidosqualene cyclase	0.18 µM
CCCOc1cccc2nc(N)nc(N)c12	IC50	-	DHFR	0.96 µM
O=c1ccc2ccc(OCCCCCCN3CCOCC3)cc2o1	IC50	-	Oxidosqualene cyclase	78.76 µM
COc1ccc(OC)c(N(C)Cc2csc3nc(N)nc(N)c23)c1	inhibition	10 µM	DHFR	<30%
O=c1[nH]cnc2c1ncn2[C@@H]1O[C@H](CO)[C@@H](O)[C@H]1O	inhibition	1000 µM	DHPS	0%
COc1cc(-c2coc3nc(N)nc(N)c23)cc(OC)c1OC	IC50	-	DHFR	>300 µM
CC(C)N/N=C/c1ccc(-c2ccnc(-c3ccc(/C=N/NC(C)C)cc3)n2)cc1	IC50	-	Topoisomerase II	3000–12000 µM
Nc1nc(N)c2c(OCC(F)(F)F)cccc2n1	IC50	-	DHFR	13 µM
C=CCN(C)CCCCCCOc1ccc2ccc(=O)oc2c1	IC50	-	Oxidosqualene cyclase	0.15 µM
CN(C)CCCOc1ccc(C(=O)c2ccc(Cl)cc2)cc1	inhibition	2 µM	Oxidosqualene cyclase	70%
O=c1ccc2ccc(OCCCCCCCCN3CCOCC3)cc2o1	IC50	-	Oxidosqualene cyclase	5.35 µM
Cn1c2cc(C3=NCCN3)ccc2c2ccc(C3=NCCN3)cc21	IC50	-	Topoisomerase II	50 µM
c1cc(-c2ccc(-c3ccc(C4=NC5CCCCC5N4)cc3)o2)ccc1C1=NC2CCCCC2N1	IC50	-	Ergosterol	248 µM
c1cc2[nH]c(-c3ccc4[nH]c5ccc(-c6nc7cc(C8=NCCN8)ccc7[nH]6)cc5c4c3)nc2cc1C1=NCCN1	IC50	-	Topoisomerase II	50 µM
CC(C)C(=O)Nc1ccc(S(=O)(=O)Nc2ccc(N)cc2O)cc1	IC50	-	DHPS	53.9 µM
C=CCN(C)CC#CCOc1ccc2ccc(=O)oc2c1	IC50	-	Oxidosqualene cyclase	1.12 µM
Nc1nc2occ(-c3c(F)cccc3F)c2c(=O)[nH]1	IC50	-	DHFR	100 µM
c1cc(-c2ccc(-c3ccc(C4=NCCN4)cc3)o2)ccc1C1=NCCN1	IC50	-	Ergosterol	310 µM
Nc1nc(N)c2ccc(Cl)cc2n1	IC50	-	DHFR	45 µM
O=C(O)c1ccccc1	IC50	-	DHPS	170 µM
CC(C)N=C(N)c1ccc(-c2ccc(-c3ccc(C(N)=NC(C)C)cc3)o2)cc1	IC50	-	Ergosterol	14 µM
c1cc2c(cc1C1=NCCN1)[nH]c1cc(C3=NCCN3)ccc12	IC50	-	Topoisomerase II	25 µM
Cl.Nc1ccc(C(=O)O)cc1N	IC50	-	DHPS	220 µM
Nc1nc(N)c2cc(Br)ccc2n1	IC50	-	DHFR	1.6 µM
Nc1nc2ccc(NCc3ccc([N+](=O)[O-])cc3)cc2c(=O)[nH]1	IC50	-	Thymidylate synthetase	120 µM
COc1ccc(Cl)cc1C1c2c(nc(N)[nH]c2=O)OC1[N+](=O)[O-]	IC50	-	DHFR	20 µM
Cn1c2ccc(C3=NCCCN3)cc2c2cc(C3=NCCCN3)ccc21	IC50	-	Topoisomerase II	10–50 µM
NC(=NC1CCC1)c1ccc(-c2ccc(-c3ccc(C(N)=NC4CCC4)cc3)o2)cc1	IC50	-	Ergosterol	25 µM
Nc1nc2occ(-c3cccc([N+](=O)[O-])c3)c2c(=O)[nH]1	IC50	-	DHFR	140 µM
c1cc(-c2ccc(-c3ccc(C4=NCCCN4)cc3)o2)ccc1C1=NCCCN1	IC50	-	Ergosterol	34 µM
CC(=O)NS(=O)(=O)c1ccc(N=Nc2c(O)n(-c3ccccc3)n(-c3ccccc3)c2=O)cc1	IC50	-	DHPS	454.4 µM
c1cc2c(cc1C1=NCCN1)c1cc(C3=NCCN3)ccc1n2CC1CCCCC1	IC50	-	Topoisomerase II	5–10 µM
Nc1nc(N)c2nc(CCCc3ccccc3)c(CCCc3ccccc3)nc2n1	IC50	-	DHFR	1.1 µM